According to PMC10653854, “New insight into flavivirus maturation from structure/function studies of the yellow fever virus envelope protein complex” (2023):

Key:
[1] = target: Yellow fever virus pr protein (N-terminal furin fragment of prM) (UniProt Q6DV88); assay: isothermal titration calorimetry (ITC); settings: 25 °C, 150 mM NaCl, 50 mM Tris, 50 mM MES (same mixed buffer at pH 6, 7 and 8)
[2] = target: Yellow fever virus pr protein (N-terminal furin fragment of prM) (UniProt Q6DV88); assay: surface plasmon resonance (Biacore T200); settings: 25 °C, not stated (supplement)

## Yellow fever virus envelope protein E, soluble ectodomain (sE)
[1]; pH 6
  ΔG: -11 kcal/mol
[1]; pH 8
  ΔG: -9.9 kcal/mol
[2]; pH 6
  K off: 23.6 10^-4 s^-1
  K on (10^5 M^-1.s^-1): 3.8
  ΔG: -11.2 kcal/mol
[2]; pH 8
  K off: 13.4 10^-4 s^-1
  K on (10^5 M^-1.s^-1): 0.7
  ΔG: -10.5 kcal/mol
